# Measured values as given in PMC5279734.
# Assays:
# [1] = tested on: C=C(OP(=O)(O)O)C(=O)O; assay: purified protein; conditions: pH 7.2
# [2] = tested on: O=C(O)CC(=O)C(=O)O; assay: purified protein; conditions: pH 7.2
substance,measurement,setting,value
(Mycobacterium tuberculosis H37Rv),Km,[1],414.1 ± 77.29 µM
same,Km,[2],13.8 ± 4.6 µM
